In article PMC9259647 (Scientific Reports, 2022):

Tested on: HXYN2

COc1cc(/C=C/C(=O)O)ccc1O [FA, 3-(4-hydroxy-3-methoxy-phenyl-prop-2-enoic)]
Hill coefficient (N) (FA 0.25 mg/mL): 2.38 ± 0.21
Hill coefficient (N) (FA 0.5 mg/mL): 1.85 ± 0.96
Hill coefficient (N) (FA 1 mg/mL): 1.93 ± 0.05

Read-outs that look alike come from different tables or passages of the source.
